Source: PubChem BioAssay AID1259414 (Drosophila RNAi Screening Center, 2018)

Purpose: 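Genome-wide screen for host control of endosymbiont load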 (primary screen)
Cells: Drosophila JW18 cells infected with Wolbachia
Knock-down reagent: long dsRNA against Drosophila genes, 0.25 µg dsRNA per well of a 384-well plate
Timing: 5 days
Challenge: cells persistently infected with Wolbachia before knock-down; no added drug
Measured: 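Automated imaging of bacterial rRNA staining divided by host cell count, reported as plate-normalised robust z-score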
Reading the numbers: Wolbachia per cell robust z: higher = more Wolbachia per host cell than the plate typical
Hit rule: 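Hit when robust z is 1.5 or more, or -1.5 or less, in at least two of three replicates; excludes dsRNAs with several or no targets, genes not expressed in JW18 and well A1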
The screen tested about 24,000 reagents; shown is a random part of those that have a named target and a result. In the full data, about 1,210 (5%) got an active call. 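Inactive calls also include excluded dsRNAs with several or no targets, genes unexpressed in JW18, and well A1, regardless of score.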 The numbers tell different reagents against one gene apart. A plus sign joins genes that one reagent is predicted to hit.

predicted target	reagent no.	Wolbachia per cell robust z, rep 1	Wolbachia per cell robust z, rep 2	Wolbachia per cell robust z, rep 3	outcome
Ptpa (GeneID 33555)	1	-1.01	-0.0959	-0.541	inactive
Ptpa (GeneID 33555)	2	-0.14	-0.00617	0.0705	inactive
Ptpa (GeneID 33555)	3	-1.22	0.688	-0.104	inactive
CG31140 (GeneID 42836)	1	0.454	-0.0174	1.94	inactive
CG31140 (GeneID 42836)	2	-0.906	-0.906	-0.135	inactive
CG31109 (GeneID 43001)	1	0.124	-0.0327	-0.363	inactive
gig (GeneID 40201)	1	-1.87	-0.149	0.229	inactive
gig (GeneID 40201)	2	-0.0134	-0.917	-2.39	inactive
CG33543 (GeneID 3346207)	1	-0.579	-0.885	-1.1	inactive
CG33543 (GeneID 3346207)	2	-0.864	0.424	0.276	inactive
CG31835 + CG42585	1	0.398	-1.15	-0.441	inactive
CG17597 (GeneID 35140)	1	1.24	0.551	-1.19	inactive
CG17597 (GeneID 35140)	2	-2.13	-0.463	-1.87	active
CG13708 (GeneID 38582)	1	1.2	1.02	0.998	inactive
pinta (GeneID 42635)	1	0.692	0.799	0.343	inactive
CG18599 (GeneID 42191)	1	0.264	0.00974	0.282	inactive
CG18599 (GeneID 42191)	2	-0.675	-0.639	-1.17	inactive
CG18599 (GeneID 42191)	3	0.772	0.0319	0.4	inactive
Sh (GeneID 32780)	1	0.97	-0.122	0.306	inactive
Sh (GeneID 32780)	2	0.349	0.274	-0.0492	inactive
Sh (GeneID 32780)	3	0.461	-2.44	-4.75	inactive
Sh (GeneID 32780)	4	-4.98	-0.28	0.51	inactive
Sh (GeneID 32780)	5	-0.239	-0.215	-0.941	inactive
asRNA:CR17025 + side-IV	1	-0.458	0.0368	-1.35	inactive
CG10053 (GeneID 40871)	1	0.695	0.446	-0.388	inactive
CG10053 (GeneID 40871)	2	0.28	1.41	-0.453	inactive
ex (GeneID 33218)	1	0.684	-1.38	-0.042	inactive
ex (GeneID 33218)	2	-0.608	1.73	-0.73	inactive
CG9961 (GeneID 33459)	1	-4.12	-7.04	-1.3	active
CG9961 (GeneID 33459)	2	0.538	0.464	-0.0452	inactive
CG9961 (GeneID 33459)	3	-0.0112	-1.42	-0.537	inactive
CG4681 (GeneID 37928)	1	1.3	-0.37	1.2	inactive
CG4681 (GeneID 37928)	2	-0.0109	-2	0.193	inactive
XRCC1 (GeneID 31451)	1	0.00315	-0.306	1.68	inactive
XRCC1 (GeneID 31451)	2	0.992	0.946	0.155	inactive
Cyp309a2 (GeneID 33439)	1	2.07	1.08	0.0276	inactive
Cyp309a2 (GeneID 33439)	2	-1.18	0.611	-0.383	inactive
Or59c (GeneID 37716)	1	-2.43	-4.83	0.251	inactive
CR11023 (GeneID 33155)	1	0.287	0.801	-0.702	inactive
CR11023 (GeneID 33155)	2	1.91	0.459	0.782	inactive
CG4658 (GeneID 34325)	1	-5.63	-4.06	0.0793	active
CG18170 + CG12105 + CG33791	1	1.23	-0.517	1.1	inactive
CG5446 (GeneID 34655)	1	0.944	1.27	-0.231	inactive
Rab9D + Rab9Fa + Rab9E	1	-1.77	-0.611	-1.13	inactive
snoRNA:Psi28S-2949 + Uhg4	1	-0.313	-1.96	-1.18	inactive
CR30374 (GeneID 10178922)	1	-3.35	-9.31	-2.77	inactive
Med (GeneID 43725)	1	0.273	0.824	0.475	inactive
Med (GeneID 43725)	2	-0.172	-1.5	0.26	inactive
CG3746 (GeneID 37593)	1	0.362	0.319	-5.13	inactive
CG3746 (GeneID 37593)	2	-0.248	-1.42	-1.67	inactive
MFS15 (GeneID 37168)	1	1.01	0.766	1.24	inactive
MFS15 (GeneID 37168)	2	1.62	1.18	1	inactive
CG12091 (GeneID 38177)	1	-0.307	0.23	-1.95	inactive
CG12091 (GeneID 38177)	2	-2.31	-2.92	-9.1	active
CG12091 (GeneID 38177)	3	1.13	1.18	0.305	inactive
CG11666 (GeneID 50121)	1	-0.105	0.458	-0.19	inactive
CG9903 (GeneID 32621)	1	0.511	1.08	-0.548	inactive
vig (GeneID 34885)	1	-2.98	-0.48	-3.63	active
vig (GeneID 34885)	2	-0.133	-1.6	-1.24	inactive
Osi23 (GeneID 43615)	1	-1.5	-0.271	0.00489	inactive
scpr-A (GeneID 41358)	1	0.439	0.608	-0.0619	inactive
Sugb (GeneID 39314)	1	-0.915	-8.76	0.665	inactive
Dok (GeneID 31667)	1	0.762	1.2	0.657	inactive
Dok (GeneID 31667)	2	0.342	0.164	0.171	inactive
CG10479 (GeneID 38674)	1	-2.17	-0.474	0.468	inactive
CG11158 (GeneID 32327)	1	0.344	0.694	-0.342	inactive
Andorra (GeneID 32798)	1	-0.111	0.243	-0.475	inactive
CG2200 (GeneID 32258)	1	-0.137	-3.36	1.05	inactive

Look-ups from above:
vig (GeneID 34885) #1, Wolbachia per cell robust z, rep 2: -0.48
CG9903 (GeneID 32621), Wolbachia per cell robust z, rep 3 = -0.548
ex (GeneID 33218) #1, Wolbachia per cell robust z, rep 2: -1.38
Cyp309a2 (GeneID 33439) #2, Wolbachia per cell robust z, rep 2 → 0.611
For “outcome”, Sh (GeneID 32780) #4 is entered as inactive
For “outcome”, vig (GeneID 34885) #2 reads inactive
